Values quoted from earlier work, collected in PMC11050952 (Marine Drugs, 2024).

How the values were obtained:
Neuro-2a cells = settings: TEFs previously obtained by the CBA, relative to TTX; cited from earlier work
mouse = settings: since trials with MBA resulted in very low toxicities; cited from earlier work

| Substance | Toxicity equivalency factor (TEF) (Neuro-2a cells) | Toxicity equivalency factor (TEF), assumed (mouse) |
| --- | --- | --- |
| 11-deoxyTTX | 0.139 |  |
| 11-norTTX-6(S)-ol | 0.404 |  |
| 5,11-dideoxyTTX | 0.75 |  |
| 5-deoxyTTX |  | 0 |
